Measured values reported in patent US6096502, “Substrate for detecting UL9 helicase activity” (Lee; Sam S.-K.).

Protein sequences, listed by entry. Tags and fused reporters are not part of them. Lines headed by an entry give the natural chain unless they say otherwise; changes in a name come on top.
UniProt P10193: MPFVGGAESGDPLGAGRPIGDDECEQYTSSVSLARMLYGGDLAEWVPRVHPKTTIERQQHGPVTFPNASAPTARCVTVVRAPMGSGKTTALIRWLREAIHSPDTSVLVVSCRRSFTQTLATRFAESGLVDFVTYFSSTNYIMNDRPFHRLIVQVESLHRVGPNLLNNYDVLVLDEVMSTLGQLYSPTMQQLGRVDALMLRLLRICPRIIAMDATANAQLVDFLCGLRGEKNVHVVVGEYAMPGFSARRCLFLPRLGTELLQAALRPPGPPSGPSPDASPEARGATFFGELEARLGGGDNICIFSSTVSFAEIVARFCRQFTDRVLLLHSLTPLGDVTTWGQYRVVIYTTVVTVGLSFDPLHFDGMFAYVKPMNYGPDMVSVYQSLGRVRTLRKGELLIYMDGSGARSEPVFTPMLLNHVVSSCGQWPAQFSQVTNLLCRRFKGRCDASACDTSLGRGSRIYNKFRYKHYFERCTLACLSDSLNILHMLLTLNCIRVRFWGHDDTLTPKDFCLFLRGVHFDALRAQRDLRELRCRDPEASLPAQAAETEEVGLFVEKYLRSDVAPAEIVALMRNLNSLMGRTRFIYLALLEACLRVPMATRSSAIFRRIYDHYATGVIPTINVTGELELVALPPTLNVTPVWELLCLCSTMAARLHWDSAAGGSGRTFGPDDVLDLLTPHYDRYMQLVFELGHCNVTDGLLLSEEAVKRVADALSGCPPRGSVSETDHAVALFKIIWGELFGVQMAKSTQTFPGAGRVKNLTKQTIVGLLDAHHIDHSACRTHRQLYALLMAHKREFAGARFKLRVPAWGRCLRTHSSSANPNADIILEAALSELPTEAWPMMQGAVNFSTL

Molecular target: UL9 protein (origin-binding protein/helicase) (UniProt P10193)
Assay: EMSA
Details: purified recombinant protein; label: 32P

Which Kd does the source give for “AGCGTTCGCACTTCGTCC (double strand) [fully duplex Box I]” here?
The Kd was 0.3 nM.

For at least one entry, the source does not settle the construct or the ends of the probe.
